PubChem BioAssay AID504761, Drosophila RNAi Screening Center | 2011

Aim: 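Fly genes whose silencing reduces dengue virus type 2 infection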 (primary screen)
System: D.Mel-2 cells from Drosophila
Reagents: long dsRNA against Drosophila genes
Conditions: infection with dengue virus type 2; dose and infection time not stated
Measurement: 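Per well on two replicate plates, imaging gave the percent of cells positive for viral envelope protein, ranked by infection, and a nuclear count of cells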
Reading the numbers: infection score: higher = more virus-infected cells; cell count: higher = more cells in the well
Call rule: 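Low infection ranks in the two replicates (chance level up to 0.065) followed by a retest with a 1.5-fold or larger significant decrease, p below 0.05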
Calls: active = confirmed: knock-down lowers infection; inactive = not picked or not confirmed
The screen tested about 22,000 reagents; below is a random part of those that have a named target and a result. In the full data, 116 (0.52%) were called active. 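Calls depend on retest data that are not deposited; infection was ranked per plate without normalising between plates; the unit of the infection score is not given.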 The raw values are shown without normalisation. The numbers tell different reagents against one gene apart. A plus sign joins genes that one reagent is predicted to hit. Not stated in the record: the amount of reagent, the time to read-out.

Gene	reagent	infection score, replicate 1	infection score, replicate 2	cell count, replicate 1	cell count, replicate 2	outcome
CG13791 (retired record)	1	4.41	18	6211	6156	inactive
E(spl)malpha-BFM	1	6.99	9.07	6148	6723	inactive
E(spl)malpha-BFM	2	14.7	19.4	5256	4583	inactive
CG7806	1	5.77	1.96	6062	6313	inactive
Pgk	1	0.83	2.4	6632	6791	inactive
Pgk	2	4.85	2.27	5871	5678	inactive
Not10	1	10.6	21.5	850	3015	inactive
Gapvd1	1	2.48	0.39	6723	6888	inactive
Gapvd1	2	6.92	2.64	5993	5984	inactive
Kul	1	8.29	4.81	1978	6005	inactive
Kul	2	8.03	1.18	6138	6271	inactive
CG2656	1	7.88	6.64	6000	6207	inactive
vito	1	3.87	1.84	6608	6673	inactive
vito	2	6.55	11.4	6594	6310	inactive
Tpi	1	16.4	27.5	6534	6531	inactive
Ddr	1	1.75	0.85	6565	6460	inactive
Ddr	2	2.08	2.29	6353	6641	inactive
Ddr	3	3.26	2.64	6527	6095	inactive
Ddr	4	1.29	12.5	6204	5734	inactive
Lgr1	1	5.28	8.01	5763	5518	inactive
Nep2	1	6.12	12.6	6770	5958	inactive
Nep2	2	3.38	1.41	6219	6738	inactive
CG30281	1	11.7	24.8	6130	5441	inactive
CG30281	2	12.3	2.54	6881	7114	inactive
Idua	1	11.5	7.31	6528	5883	inactive
SuUR	1	4.02	2.97	5678	6235	inactive
Indy-2 + CG33934	1	14.2	3.19	6229	6451	inactive
Indy-2 + CG33934	2	2.38	1.36	882	6161	inactive
tj	1	0.88		793	578	inactive
tj	2	4.39	8.51	1570	5414	inactive
CG15042	1	16.4	1.7	3217	6533	inactive
CG15020	1	1.44	3.29	6129	5653	inactive
CG3088	1	6.86	3.92	6454	6455	inactive
Cpes	1	12.4	17.2	5566	4533	inactive
Cpes	2	9.54	5.61	5513	6173	inactive
CG12290	1	2.2	1.44	6319	6522	inactive
CG12290	2	20.1	2.23	5752	2283	inactive
CG40282 (retired record)	1	0.43	1.11	4922	4756	inactive
Lcp65Af	1	3.55	3.39	6003	5634	inactive
Lcp65Af	2	12.8	3.74	6065	6172	inactive
Axn	1	12.8	2.97	5479	5386	inactive
Axn	2	12.1		3841	379	inactive
Uqcc1 + CG9948	1	3.58	2.92	6122	5921	inactive
CG30460	1	6.33	13.4	6349	6671	inactive
CG30460	2	1.31	10.1	6319	7126	inactive
pnr	1	20.1	7.4	6206	6379	inactive
pnr	2	4.23	2.37	5739	5823	inactive
Taf3	1	1.52	4	6790	6927	inactive
Taf3	2		36.7	365	4085	inactive
mRpL42	1	25.4	17.8	4477	3293	inactive
CG33218 (retired record)	1	1.16	3.77	6386	7238	inactive
esg	1	2.23	3.14	6560	6468	inactive
CG12374	1	22.1	17.9	5922	6801	inactive
CG7781	1	14.4	25.4	5643	5809	inactive
Nsun5	1	8.25	1.98	6130	6481	inactive
CG17328	1	7.82	13	5180	5747	inactive
CG17328	2	2.72	4.43	6139	6436	inactive
CG17328	3	1.92	4.25	6152	6261	inactive

Quoted from above for reference:
Gene	reagent	infection score, replicate 1	infection score, replicate 2	cell count, replicate 1	cell count, replicate 2	outcome
Ddr	1	1.75	0.85	6565	6460	inactive
Ddr	2	2.08	2.29	6353	6641	inactive
Ddr	3	3.26	2.64	6527	6095	inactive
Ddr	4	1.29	12.5	6204	5734	inactive
Lgr1	1	5.28	8.01	5763	5518	inactive
